pIC50: −log10 of the molar value.
Target: Replicase polyprotein 1ab (Severe acute respiratory syndrome coronavirus 2, UniProt P0DTD1)
Experiment: Inhibition of recombinant SARS-CoV-2 Main protease using ALNDFSNSGSDVLYQPPQTSITSAVLQ/SGFRKMAFPS-NH2 as substrate preincubated for 45 to 75 mins followed by substrate addition measured after 6 mins by SPE-MS inhibition assay

With `CC1(C)S[C@H]2N(C(=O)C2(Br)Br)[C@H]1C(=O)OCc1ccccc1` the pIC50 was less than 4.30.
